Measured values from several laboratories, pooled; numbers as filed in NIAID ChemDB.

Common to all: host cell toxicity; cell line: MT-4; method: MTT; endpoint: CC50

Conditions beyond the fields shown may differ between rows. CCn: concentration that lowers growth or viability of the cells by n%.

compound,result
Cc1cc(-c2ccc(C#N)cc2)cc(C)c1Oc1ccnc(S(=O)(=O)CC(=O)NCc2ccc(Cl)cc2)n1,3.86 µM
COc1ccc(C(=O)/C=C/c2ccc(OC)c(OC)c2)c(O)c1,370 µM
COc1ccc(N(C)C(=O)[C@H](Cc2cc(F)cc(F)c2)NC(=O)CN2CCN(S(=O)(=O)c3ccc(N)cc3)CC2=O)cc1,117 µM
Cc1cc(-c2ccc(C#N)cc2)cc(C)c1Oc1ccnc(S(=O)(=O)CC(=O)NC(C)c2ccc(Br)cc2)n1,3.21 µM
O=C(O)CC1C/C(=C\c2cc(O)c(O)c(O)c2)C(=O)/C(=C/c2cc(O)c(O)c(O)c2)C1,40 µM
Cc1cc(-c2ccc(C#N)cc2)cc(C)c1Oc1ccnc(S(=O)(=O)C(C)C(=O)Nc2ccc(Cl)cc2)n1,16.35 µM
COc1ccc(/C=C/C(=O)c2ccc(OC)cc2)cc1,236 µM
COc1ccc(N(C)C(=O)[C@H](Cc2cc(F)cc(F)c2)NC(=O)CN2CCN(S(=O)(=O)c3ccccc3)CC2=O)cc1,113.9 µM
S=C(NCc1ccco1)Nc1ccc(Cl)cc1,36.7 µM
COc1cc(/C=C2/SC(=O)N(CC(=O)Nc3nc4ccc(SC#N)cc4s3)C2=O)cc(OC)c1OC,54 µM
CCN(CC)CN1C(=O)/C(=N\c2ncc(Cc3cc(OC)c(OC)c(OC)c3)c(N)n2)c2cc(F)ccc21,141 µg/mL
CCCCCCN(CCCCCC)c1ccc(/C=C2/SC(=O)N(CC(=O)Nc3nc4ccc(SC#N)cc4s3)C2=O)cc1,39 µM
O=C1NC(=O)C2C1[C@@H]1C=C[C@H]2C1=C(c1ccccc1)c1ccccc1,51 µM
O=C1/C(=C/c2cc(O)c(O)c(O)c2)CC(C(=O)O)C/C1=C\c1cc(O)c(O)c(O)c1,70 µM
FC(F)(F)c1cccc(NC(=S)NCc2ccco2)c1,44.7 µM
CCn1cc(C(=O)O)c(=O)c2cc(F)c(N3CCN(CN4C(=O)/C(=N\c5ncc(Cc6cc(OC)c(OC)c(OC)c6)c(N)n5)c5cc(F)ccc54)C(C)C3)c(F)c21,130.9 µg/mL
O=C(/C=C/c1ccccc1)c1ccccc1O,324 µM
O=C1C2C3C=CC(C3=C(c3ccccc3)c3ccccc3)C2C(=O)N1CCN1CCCCC1,38 µM
O=C(/C=C/c1ccc(Cl)cc1)c1ccccc1O,200 µM
CCN1C/C(=C\c2ccc([N+](=O)[O-])c(O)c2)C(=O)/C(=C/c2ccc([N+](=O)[O-])c(O)c2)C1,4 µM
CCc1c(Cc2ccccc2)n(COCC2CC2)c(=O)[nH]c1=O,>100 µM
Cc1cc(-c2ccc(C#N)cc2)cc(C)c1Oc1ccnc(S(=O)(=O)CC(=O)NCCc2ccc(Cl)cc2)n1,8.26 µM
COc1cc(Cc2cnc(/N=C3\C(=O)N(CN4CCN(c5cccc(C(F)(F)F)c5)CC4)c4ccc(F)cc43)nc2N)cc(OC)c1OC,136.6 µg/mL
OC1/C(=C/c2ccc(Cl)c(Cl)c2)CCC/C1=C\c1ccc(Cl)c(Cl)c1,102 µM
CCc1c(Cc2ccc(OC)c(OC)c2)n(COCc2ccccc2)c(=O)[nH]c1=O,80 µM
OC1/C(=C/c2ccc(Cl)c(Cl)c2)CSC/C1=C\c1ccc(Cl)c(Cl)c1,119 µM
COc1cc(Cc2cnc(/N=C3\C(=O)N(CN4CCCC4)c4ccc(F)cc43)nc2N)cc(OC)c1OC,129.6 µg/mL
N#CSc1ccc2nc(N)sc2c1,26 µM
Cc1cc(C)cc(S(=O)(=O)c2c(C(=O)NCC(=O)NN)[nH]c3ccc(Cl)cc23)c1,≥200 µM
Cc1cn([C@H]2C[C@H](N=[N+]=[N-])[C@@H](CO)O2)c(=O)[nH]c1=O,64.1 µM
CCCCCCCCCCCCCCCCOCC(COP(=O)(O)O)OCCCCCCCCCCCCCCCC,>5 µM
CCc1c(Cc2ccc(C)cc2)n(COCCc2ccccc2)c(=O)[nH]c1=O,60 µM
COc1cc(Cc2cnc(/N=C3\C(=O)N(CN4CCN(C)CC4)c4ccc(F)cc43)nc2N)cc(OC)c1OC,106.7 µg/mL
CCc1c(Cc2ccc(C)cc2)n(COCCCc2ccccc2)c(=O)[nH]c1=O,43 µM
S=C(NCc1ccco1)Nc1cccc(Br)c1,38.2 µM
COc1ccc(N(C)C(=O)[C@H](Cc2cc(F)cc(F)c2)NC(=O)CN2CCN(S(=O)(=O)c3cccc(N)c3)CC2=O)cc1,108.6 µM
O=C1C(=Cc2cc(O)c(O)c(O)c2)C(=O)c2ccccc21,19 µM
CCc1c(Cc2ccc(OC)c(OC)c2)n(COCCCc2ccccc2)c(=O)[nH]c1=O,38 µM
COc1ccc(N(C)C(=O)[C@H](Cc2cc(F)cc(F)c2)NC(=O)CN2CCN(S(=O)(=O)c3ccc(F)cc3)CC2=O)cc1,>202 µM
O=C(/C=C/c1ccc(F)cc1)c1ccccc1O,80.73 µM
COc1ccc(N(C)C(=O)[C@H](Cc2cc(F)cc(F)c2)NC(=O)CN2CCN(S(=O)(=O)c3cccc(Br)c3)CC2=O)cc1,13.24 µM
N#CSc1ccc2nc(NC(=O)CN3C(=O)S/C(=C/c4ccc(O)cc4)C3=O)sc2c1,56 µM
CCc1c(Cc2cc(C)cc(C)c2)n(COCCc2ccccc2)c(=O)[nH]c1=O,41 µM
COc1ccc(N(C)C(=O)[C@H](Cc2cc(F)cc(F)c2)NC(=O)CN2CCN(S(=O)(=O)c3ccccc3N)CC2=O)cc1,63.62 µM

For reference, 5 entries again:

compound | result
CCc1c(Cc2ccc(OC)c(OC)c2)n(COCc2ccccc2)c(=O)[nH]c1=O | 80 µM
COc1ccc(N(C)C(=O)[C@H](Cc2cc(F)cc(F)c2)NC(=O)CN2CCN(S(=O)(=O)c3ccc(F)cc3)CC2=O)cc1 | >202 µM
O=C(O)CC1C/C(=C\c2cc(O)c(O)c(O)c2)C(=O)/C(=C/c2cc(O)c(O)c(O)c2)C1 | 40 µM
COc1ccc(N(C)C(=O)[C@H](Cc2cc(F)cc(F)c2)NC(=O)CN2CCN(S(=O)(=O)c3cccc(Br)c3)CC2=O)cc1 | 13.24 µM
COc1ccc(/C=C/C(=O)c2ccc(OC)cc2)cc1 | 236 µM